Experimental findings from PMC4450067 (PLoS Pathogens, 2015) are described below.

The test system of the assay is G3BP-NTF2. Put plainly: Analytical size exclusion chromatography (SEC) of G3BP-NTF2 with or without nsP3-25. Type of assay: binding, human. The note with it: G3BP-NTF2 alone, pH 7. Here is the method:
Engagement of two G3BP molecules with each nsP3-25 peptide was further supported by analytical size exclusion chromatography (SEC) analysis. It is known from crystal structures and SEC analysis that the NTF2-like domains of rat and human G3BP form homo-dimers. G3BP-NTF2 alone was eluted with an apparent molecular weight of 30 kDa, slightly lower than the calculated molecular weight of the dimer (36 kDa), while pre-incubation of G3BP with a ten-fold molar excess of nsP3-25 peptide shifted the elution peak, corresponding to the formation of a 60 kDa complex (Fig. 4E). […] There was no evidence for higher-order oligomers.
Before analysis, 40 μM G3BP-NTF2 and 400 μM nsP3-25 were mixed and incubated for 1h in SEC-buffer (25 mM HEPES, 300 mM NaCl, 5 mM MgCl2, 10% glycerol, pH 7). A sample volume of 100 μL was injected onto the Superdex 75 10/300 GL column equilibrated in SEC-buffer. G3BP-NTF2 alone was used a control. The apparent molecular weights of the eluted proteins were calculated from their retention volumes as described in the gel filtration LMW/HMW calibration kits assuming similar globular shapes for the analyzed proteins and calibration standards (GE Healthcare).

Consider “G3BP-NTF2: purified NTF2-like domain of human G3BP-1, expressed in E. coli”, for which the retention volume (SEC) is on record as 11.3 mL. Under “Superdex 75 10/300 GL, 25 mM HEPES, 300 mM NaCl, 5 mM MgCl2, 10% glycerol”, the “apparent molecular weight of eluted G3BP-NTF2” value is recorded as 30 kDa.
